Measured values from several laboratories, pooled; numbers as filed in NIAID ChemDB.

Shared fields: enzyme or target tests; agent: Toxoplasma gondii

Rows are shuffled and stem from different studies. Percent inhibition refers to the dose given; in toxicity tests it is the harm to the cells. ICn is the concentration giving n% inhibition.

O=C1CC(=O)NC(=O)N1 ; protein: Uracil phosphoribosyltransferase ; endpoint: IC50 ; strain or isolate: RH ; value: >2000 µM
CC(C)Cn1c(=O)n(C)c(=O)c2[nH]cnc21 ; protein: Phosphoribosyltransferase ; tested at: 900 µM ; endpoint: inhibition ; strain or isolate: RH ; value: <10%
Cc1c[nH]c(=O)[nH]c1=O ; protein: Uracil phosphoribosyltransferase ; tested at: 2000 µM ; endpoint: inhibition ; strain or isolate: RH ; value: <5%
Nc1ccc(S(=O)(=O)Nc2cc(Cl)cc(Cl)c2)cc1 ; protein: DHPS ; endpoint: IC50 ; value: 28.8 µM
CC1(C)N=C(N)N=C(N)N1c1ccc(CCC(=O)Nc2cccc(S(=O)(=O)F)c2)cc1.CCS(=O)(=O)O ; protein: DHFR ; endpoint: IC50 ; strain or isolate: RH ; value: 0.067 µM
O=c1cc[nH]cc1 ; protein: Uracil phosphoribosyltransferase ; tested at: 2000 µM ; endpoint: inhibition ; strain or isolate: RH ; value: <10%
CC(O)CN1CNc2c1c(=O)n(C)c(=O)n2C ; protein: Phosphoribosyltransferase ; endpoint: Ki ; strain or isolate: RH ; value: 1900 µM
Cn1c(=O)cc[nH]c1=O ; protein: Uracil phosphoribosyltransferase ; tested at: 2000 µM ; endpoint: inhibition ; strain or isolate: RH ; value: <5%
CCOc1ccc2sc(NS(=O)(=O)c3ccc(N)cc3)nc2c1 ; protein: DHPS ; endpoint: IC50 ; value: 990 µM
Ic1ncnc2nc[nH]c12 ; protein: Phosphoribosyltransferase ; tested at: 900 µM ; endpoint: inhibition ; strain or isolate: RH ; value: <10%
Nc1ccc(S(=O)(=O)Nc2nc(-c3ccccc3)cs2)cc1 ; protein: DHPS ; endpoint: IC50 ; value: 430 µM
O=c1cc(Cl)[nH]c(=O)[nH]1 ; protein: Uracil phosphoribosyltransferase ; endpoint: IC50 ; strain or isolate: RH ; value: >2000 µM
Nc1ccc(S(=O)(=O)Nc2nc3c(c(=O)[nH]2)CCCC3)cc1 ; protein: DHPS ; endpoint: IC50 ; value: 260 µM
COc1ccc2c(c1)CCc1nc(N)nc(N)c1-2 ; protein: DHFR ; endpoint: IC50 ; strain or isolate: RH ; value: 2.5 µM
NC(=O)c1[nH]cnc1N ; protein: Phosphoribosyltransferase ; endpoint: Ki ; strain or isolate: RH ; value: 7.9 µM
CC1(C)N=C(N)N=C(N)N1c1cccc(CC(=O)Nc2ccccc2)c1 ; protein: DHFR ; endpoint: IC50 ; strain or isolate: RH ; value: 0.084 µM
O=Nc1c(O)[nH]c(=O)[nH]c1=O ; protein: Uracil phosphoribosyltransferase ; tested at: 2000 µM ; endpoint: inhibition ; strain or isolate: RH ; value: <5%
CC1(C)N=C(N)N=C(N)N1c1ccc(C(=O)c2ccccc2)cc1.Cl ; protein: DHFR ; endpoint: IC50 ; strain or isolate: RH ; value: 0.025 µM
N#[N+]c1c[nH]c(=O)[nH]c1=O ; protein: Uracil phosphoribosyltransferase ; endpoint: Ki ; strain or isolate: RH ; value: 1300 µM
C1=CN2NC=NC2N=C1 ; protein: Phosphoribosyltransferase ; endpoint: IC50 ; strain or isolate: RH ; value: >900 µM
CC1(C)N=C(N)N=C(N)N1c1ccc(C(=O)Nc2cccc(S(=O)(=O)F)c2)cc1.CCS(=O)(=O)O ; protein: DHFR ; endpoint: IC50 ; strain or isolate: RH ; value: 69 µM
Nc1nccc(=O)[nH]1 ; protein: Phosphoribosyltransferase ; endpoint: Ki ; strain or isolate: RH ; value: 1060 µM
O=c1[nH]cc(Cc2ccccc2)c(=O)[nH]1 ; protein: Uracil phosphoribosyltransferase ; endpoint: IC50 ; strain or isolate: RH ; value: >2000 µM
CC1(C)N=C(N)N=C(N)N1c1ccc(CCc2ccccc2)cc1 ; protein: DHFR ; endpoint: IC50 ; strain or isolate: RH ; value: 0.012 µM

A second listing of 2 rows from above:

CC1(C)N=C(N)N=C(N)N1c1ccc(CCc2ccccc2)cc1 ; protein: DHFR ; endpoint: IC50 ; strain or isolate: RH ; value: 0.012 µM
Cn1c(=O)cc[nH]c1=O ; protein: Uracil phosphoribosyltransferase ; tested at: 2000 µM ; endpoint: inhibition ; strain or isolate: RH ; value: <5%